Article PMC4823272 (Frontiers in Microbiology, 2016)

Tested on: HA of the H1N1 strain (A/New Caledonia/20/99)
Test: AFM binding of H1 HA to lipid membranes (HA-bound area)
Design: species or system influenza virus A/New Caledonia/20/99 (H1N1)
Conditions: 25°C, 1 h, n = 3

Substance: Neu5Acα2–3Galβ1–4Glcβ1–1′Cer [GM3]
- HA-bound area ([H1 HA] = 19 μM (Figure 6B)): 48%
- H1 HA binding, result in words ([HA] = 2.4–24 nM, HA-bound area): increased in proportion to HA concentrations
